Compound potency records, mixed from different reports. Data source: NIAID ChemDB in PubChem.

Common to all: whole-cell or culture tests; organism: Mycobacterium bovis

Blank or dashed fields: not listed here. Lines come from different laboratories, so protocols vary. ECn is the concentration giving n% inhibition of infection, replication or growth.

smiles	strain	method	measure	value
O=[N+]([O-])c1ccc(O)c2ncccc12	BCG	-	MIC	10 µM
O=[N+]([O-])c1ccc(C2=NOC(c3ccc(N4CCN(Cc5ccccc5)CC4)cc3)C2)o1	BCG	-	MIC	0.0008 µg/mL
Clc1ccccc1C(c1ccccc1)(c1ccccc1)n1ccnc1	-	-	EC50	>1 µM
O=C(O)c1ccc(N=Cc2ccc(O)c(O)c2O)cc1O	BCG	-	EC75	27 µM
CC(=O)N1CCN(c2ccc(OC[C@H]3CO[C@](Cn4ccnc4)(c4ccc(Cl)cc4Cl)O3)cc2)CC1	-	-	EC50	>1 µM
CCC1CN(c2cc3c(cc2F)c(=O)c(C(=O)O)cn3C2CC2)CCN1	BCG-CX1 (D94N)	-	MIC	7 µg/mL
COc1ccc(C=Nc2ccc(C(=O)O)c(O)c2)c(O)c1	BCG	-	EC75	26 µM
CC1CN(c2cc3c(cc2F)c(=O)c(C(=O)O)cn3C2CC2)CCN1	BCG-CX2 (A90V D94N)	-	MIC	25 µg/mL
C=C1[C@@H](O)[C@@H]2OC3(CCC(/C=C/[C@@H](C)[C@@H]4CC(C)=CC5(O[C@H](C[C@@](C)(O)C(=O)O)CC[C@H]5O)O4)O3)CC[C@H]2O[C@@H]1[C@@H](O)C[C@H](C)[C@H]1OC2(CCCCO2)CC[C@H]1C	BCG	-	EC50	>6 µM
CC(C)N1CCN(c2ccc(OC[C@@H]3CO[C@@](Cn4cncn4)(c4ccc(Cl)cc4Cl)O3)cc2)CC1	-	-	EC50	>100 µM
CO[C@H]1/C=C/O[C@@]2(C)Oc3c(C)c(O)c4c(O)c(c(/C=N/N5CCN(C)CC5)c(O)c4c3C2=O)NC(=O)/C(C)=C\C=C\[C@H](C)[C@H](O)[C@@H](C)[C@@H](O)[C@@H](C)[C@H](OC(C)=O)[C@@H]1C	SB1953	resazurin	MIC	1 µg/mL
Cc1ncc([N+](=O)[O-])n1CCO	-	-	EC50	>100 µM
CCN1CCN(c2c(F)cc3c(=O)c(C(=O)O)cn(C4CC4)c3c2OC)CC1	BCG-KD1295 (WILD TYPE)	-	MIC	0.058 µg/mL
Clc1ccc(COC(Cn2ccnc2)c2ccc(Cl)cc2Cl)c(Cl)c1	-	-	EC50	>1 µM
COc1ccc(C=O)cc1	AN5	resazurin	MIC	7.29 µg/mL
CN[C@@H]1[C@H](O[C@H]2[C@H](O[C@H]3[C@H](O)[C@@H](O)[C@H](N=C(N)N)[C@@H](O)[C@@H]3N=C(N)N)O[C@@H](C)[C@]2(O)C=O)O[C@@H](CO)[C@H](O)[C@H]1O	BCG	-	MIC	6.25 µg/mL
O=c1cc(O)c2ccccc2o1	BCG	broth dilution	MIC	125 µg/mL
c1ccc(-c2ccc(C(c3ccccc3)n3ccnc3)cc2)cc1	-	-	EC50	>1 µM
O=C(NCc1ccc(N2CCN(Cc3ccccc3)CC2)cc1)c1ccc([N+](=O)[O-])o1	BCG	-	MIC	0.012 µg/mL